Data as given in the supplement of paper PMC3578754.

Key:
Assay in all cases: fold change of IC50 against reference virus; higher = more resistant
didanosine = compound: O=c1[nH]cnc2c1ncn2[C@H]1CC[C@@H](CO)O1 [didanosine]
Experimental: (§1)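 Cell-culture drug susceptibility tests of virus bearing the reverse transcriptase of each isolate, gathered from many studies.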

nevirapine = compound: Cc1ccnc2c1NC(=O)c1cccnc1N2C1CC1 [nevirapine]
Experimental: as §1

zidovudine = compound: Cc1cn([C@H]2C[C@H](N=[N+]=[N-])[C@@H](CO)O2)c(=O)[nH]c1=O [zidovudine]
Experimental: as §1

zalcitabine = compound: Nc1ccn([C@H]2CC[C@@H](CO)O2)c(=O)n1 [zalcitabine]
Experimental: as §1

emtricitabine = compound: Nc1nc(=O)n([C@@H]2CS[C@H](CO)O2)cc1F [emtricitabine]
Experimental: as §1

abacavir = compound: Nc1nc(NC2CC2)c2ncn([C@H]3C=C[C@@H](CO)C3)c2n1 [abacavir]
Experimental: as §1

efavirenz = compound: O=C1Nc2ccc(Cl)cc2[C@@](C#CC2CC2)(C(F)(F)F)O1 [efavirenz]
Experimental: as §1

stavudine = compound: Cc1cn([C@H]2C=C[C@@H](CO)O2)c(=O)[nH]c1=O [stavudine]
Experimental: as §1

tenofovir = compound: C[C@H](Cn1cnc2c(N)ncnc21)OCP(=O)(O)O [tenofovir]
Experimental: as §1

delavirdine = compound: CC(C)Nc1cccnc1N1CCN(C(=O)c2cc3cc(NS(C)(=O)=O)ccc3[nH]2)CC1 [delavirdine]
Experimental: as §1

Test System | fold change of IC50 against reference virus (didanosine) | fold change of IC50 against reference virus (nevirapine) | fold change of IC50 against reference virus (zidovudine) | fold change of IC50 against reference virus (zalcitabine) | fold change of IC50 against reference virus (emtricitabine) | fold change of IC50 against reference virus (abacavir) | fold change of IC50 against reference virus (efavirenz) | fold change of IC50 against reference virus (stavudine) | fold change of IC50 against reference virus (tenofovir) | fold change of IC50 against reference virus (delavirdine)
HIV-1 isolate 47 (reverse transcriptase changes: M41L K122E Y181C M184V F214L T215Y A272P K277R A376T A400T D460N S468T H483Y K512Q S519N, study 44) | 2.1 | 80 | 4 | 4 | 5000 | – | – | – | – | –
HIV-1 isolate 126 (reverse transcriptase changes: M41L L74V V106A K122E M184V F214L T215Y A272P K277R M357T A376T A400T N447S D460N S468T S519N, study 17) | 19 | 150 | 1 | – | 2000 | – | – | – | – | –
HIV-1 isolate 151 (reverse transcriptase changes: K122E Y181C M184V F214L A272P K277R A376T A400T D460N S468T H483Y K512Q S519N, study 44) | – | 126 | 1 | 4 | 5000 | – | – | – | – | –
HIV-1 isolate 168 (reverse transcriptase changes: D67N K70R K122E M184V F214L T215Y K219Q A272P K277R A376T A400T D460N S468T H483Y K512Q S519N, study 44) | 2.4 | – | 17 | 4 | 5000 | – | – | – | – | –
HIV-1 isolate 621 (reverse transcriptase changes: K122E Y181C F214L A272P K277R A376T A400T D460N S468T H483Y K512Q S519N, study 44) | – | 150 | – | – | 1 | – | – | – | – | –
HIV-1 isolate 693 (reverse transcriptase changes: M41L K122E M184V F214L A272P K277R L282Y A376T A400T D460N S468T H483Y K512Q S519N, study 44) | 3.9 | 1 | 5 | 6 | 5000 | – | – | – | – | –
HIV-1 isolate 741 (reverse transcriptase changes: K122E M184V F214L A272P K277R A376T A400T D460N S468T H483Y K512Q S519N, study 44) | 2.8 | 1 | 1 | 3 | 5000 | – | – | – | – | –
HIV-1 isolate 808 (reverse transcriptase changes: D67N K70R K122E F214L T215Y K219Q A272P K277R A376T A400T D460N S468T H483Y K512Q S519N, study 44) | 1.9 | 1 | 126 | 2 | 6 | – | – | – | – | –
HIV-1 isolate 1306 (reverse transcriptase changes: D67N K70R L100I K102R K103N I135V I142V Q174H V179I G196E R211G F214L T215F K219Q A272S I293V E297A E308G, study 121) | 0.8 | 33 | 30 | 0.5 | – | 0.8 | 700 | 1.4 | 1.4 | ≥ 250
HIV-1 isolate 1311 (reverse transcriptase changes: R83K K103N V108I I135V E169D Y181C T200A Q207E T215Y H221Y V245T, study 121) | 1.4 | ≥ 400 | 28 | 1.1 | – | 2.4 | 700 | 1.7 | 1.7 | ≥ 250
HIV-1 isolate 1314 (reverse transcriptase changes: M41L D67N T69D L74V L100I K103N M184V T215Y, study 118) | 2.5 | 98 | 1.3 | 1.9 | – | 5.5 | 180 | 1.3 | 0.6 | 180
HIV-1 isolate 1332 (reverse transcriptase changes: E40F M41L K43E D67N K104R V106I T107P V118I M184V Q207E H208Y L210W R211K T215Y A272P K277R, study 121) | 3.3 | 0.1 | 59 | 3.8 | – | 8.4 | 0.1 | 5.4 | 1.7 | 0.1
HIV-1 isolate 1355 (reverse transcriptase changes: T39A M41L K43A E44D D67N T69D V118I K122E I142V M184V Q207E L210W R211K T215Y K287R I293V E297A, study 121) | 2.4 | 0.7 | 61 | 3.2 | – | 7.7 | 0.5 | 3.9 | 2.3 | 0.4
HIV-1 isolate 1356 (reverse transcriptase changes: M41L K122E F214L T215Y A272P K277R M357T A376T A400T N447S D460N S468T S519N, study 17) | 1.9 | 1 | 65 | – | 1 | – | – | – | – | –
HIV-1 isolate 1359 (reverse transcriptase changes: A98S K122E Q207E, study 121) | 1 | 1.6 | 1.1 | 1.1 | – | 1.1 | 1.2 | 1 | 1.2 | 2.1
HIV-1 isolate 1377 (reverse transcriptase changes: M41L K122E F214L T215Y A272P K277R A376T A400T D460N S468T H483Y K512Q S519N, study 44) | 2.4 | 1 | 1 | 3 | 4 | – | – | – | – | –
HIV-1 isolate 1391 (reverse transcriptase changes: T39A K49R K65R Y115F V118I K122E Y127C I135T E169D Y181C F214L L228H A288S, study 121) | 1.8 | 52 | 0.4 | 1.8 | – | 6 | 0.5 | 0.9 | 1.5 | 17
HIV-1 isolate 1416 (reverse transcriptase changes: K32E V35I K49R A62V V75I F77L F116Y I135V Q151M S162C E169D Q207E R211K F214L A272P E291G I293V, study 121) | 11 | 0.4 | 55 | 17 | – | 7.1 | 0.4 | 11 | 1.9 | 0.6
HIV-1 isolate 1427 (reverse transcriptase changes: K122E F214L A272P K277R A376T A400T D460N S468T H483Y K512Q S519N, study 144) | 1 | 1 | 1 | 1 | 1 | – | – | – | – | –
HIV-1 isolate 1429 (reverse transcriptase changes: M41L D67N R83K K103N M184V Q207H L210W R211K T215Y A272P K311R, study 121) | 1.7 | 26 | 30 | 2 | – | 6 | 9.6 | 2.2 | 1.6 | 9.2
HIV-1 isolate 1465 (reverse transcriptase changes: M41L K43N E44D D67N T69D A98S K103N V118I K122E I135V E138Q S162C G196E E203K Q207E H208Y L210W R211K T215Y V245A Q278H T286A P294S, study 121) | 2.3 | 26 | 2400 | 1.8 | – | 8.4 | 5.1 | 6.7 | 5.9 | 9.2
HIV-1 isolate 1479 (reverse transcriptase changes: S48T D67N T69N K70R K122E M184V G196E T215F D218E K219Q V245M A272P A288T E297K E312D, study 121) | 1.9 | 0.5 | 9.9 | 2.3 | – | 6.1 | 0.5 | 1.9 | 1.1 | 0.7
HIV-1 isolate 1488 (reverse transcriptase changes: V35T V60I K103N K122E I135T G196E Q207E, study 15) | 0.9 | 9 | 1.1 | 1.1 | – | 1 | 7.3 | 1.1 | 1.1 | 16
HIV-1 isolate 1508 (reverse transcriptase changes: V35I M41L K43Q A98S K102Q V108I V118I D121Y K122E I135T V179E Y181C M184V T200A L210W T215Y K223Q L228R V245M A272P K275R K277R P294T, study 121) | 1.4 | ≥ 400 | 5.2 | 2.2 | – | 4.6 | 15 | 2.3 | 1.2 | 62
HIV-1 isolate 1526 (reverse transcriptase changes: V35M T39A M41L K43E D67N V118I D123E D177E M184V G196E E203K Q207E H208Y L210W R211K T215Y K223Q A272P T286A E297R K311R, study 121) | 2.1 | 0.3 | 24 | 3.3 | – | 7.4 | 0.2 | 4.1 | 1.5 | 0.1
HIV-1 isolate 1565 (reverse transcriptase changes: K103N K122E M184V F214L A272P K277R, study 138) | 1.3 | 51.8 | 0.5 | 1.5 | – | 2.7 | 30.4 | 0.7 | 0.5 | 63.1
HIV-1 isolate 1576 (reverse transcriptase changes: K102Q D123E Y181C I202V R211K T215Y A272P K277R T286A, study 121) | 1.1 | 85 | 1.4 | 0.9 | – | 1.3 | 1 | 1.3 | 0.6 | 6.1
HIV-1 isolate 1622 (reverse transcriptase changes: K103N I142V M184V R211G F214L A272P T286A K311R V317A Q334Y, study 15) | 1.3 | 48 | 0.5 | 1.6 | – | 3.4 | 19 | 0.8 | 0.6 | 40
HIV-1 isolate 1633 (reverse transcriptase changes: M41L D67N T69D K103N L210W T215Y, study 15) | 1.9 | 22 | 900 | 1.7 | – | 6.7 | 7.5 | 4.3 | 4.6 | 5.8

Fold change is the IC50 on the isolate divided by the IC50 on a reference virus; 1 = unchanged, higher = more resistant. Changes are given against the subtype B consensus. No active / inactive call. The values were gathered from many studies (numbered anew) with different assays, which the source does not name. Most viruses are clinical isolates; some are laboratory strains or clones with known resistance changes. Isolates with mixed residues are left out; stretches that were not sequenced show no change. Round top values that many isolates share are read here as limits; other very high values and 0.1 may be limits too.
